{"source": "patent US20110086041A1", "key": {"[1]": {"target": "92UG-gp140-Fd trimer (HIV-1 isolate 92UG037.8)", "test": "SPR, 92UGgp140-Fd immobilized, 4D sCD4 flowing, two-step binding model"}, "[2]": {"target": "92UG-gp140-Fd trimer (HIV-1 isolate 92UG037.8)", "test": "SPR, 92UGgp140-Fd immobilized, 4D sCD4 flowing, two-step binding model (ka1)"}, "[3]": {"target": "92UG-gp140-Fd trimer (HIV-1 isolate 92UG037.8)", "test": "SPR, 92UGgp140-Fd immobilized, 4D sCD4 flowing, two-step binding model (kd1)"}}, "note": "pKd: −log10 of the molar value.", "data": [{"substance": "soluble four-domain CD4 (from UniProt P01730 26-394) (receptor)", "values": [{"measurement": "pKd", "setting": "[1]", "result": 8.70}, {"measurement": "ka2", "setting": "[1]", "result": 0.0211, "unit": "s⁻¹"}, {"measurement": "kd (second step of the two-step model)", "setting": "[1]", "result": 0.000738, "unit": "s⁻¹"}, {"measurement": "kon", "setting": "[2]", "result": 239000, "unit": "M⁻¹ s⁻¹"}, {"measurement": "koff", "setting": "[3]", "result": 0.0141, "unit": "s⁻¹"}]}]}
